Values quoted from earlier work in PMC4148168 (Journal of Medicinal Chemistry, 2014).

System: anthrax lethal factor
Conditions: read-out: IC50 against anthrax lethal factor; cited from earlier work

In the case of O=c1ccccn1O [1,2-HOPO], the IC50 is given as about 5 mM.
